SMILES strings stand for the structures. The list shows a part of the results. Entries with a potency or affinity are not part of this list. Calls of active or inactive are those of the source. The rule behind the calls is not given here.

A short description of the assay: inhibition of WNV-induced cytopathic effect – cell-based, CPE readout (AID 1621). As to conditions: West Nile virus-infected cells, at 10 µM, stronger effect = higher value.
In the case of `CC1CCC(C(C)C)C(OP(=O)(Nc2ccccn2)c2ccccc2)C1` (configuration not stated), the CPE inhibition is inactive: -0.83%.

For the compound `Cc1ccc(C(=O)OC2CN3CCC2CC3)cc1` (configuration not stated), the CPE inhibition was inactive: -0.2%.

For `Cc1nn(-c2ccccc2)c2c1P(=O)(N1CCOCC1)N(C)C(c1ccccc1)=N2` (configuration not stated), the CPE inhibition is inactive: -0.26%.

With `CN(C)C1(CNC(=O)c2ccc(S(C)(=O)=O)cc2)CCCCC1`, the CPE inhibition was inactive: -0.71%.

As for `O=C(/C=C/c1ccccc1)OC1CN2CCC1CC2` (configuration not stated), the CPE inhibition was inactive: 0.78%.

Regarding `O=P1(Nc2ncccn2)COc2ccccc2OC1`, the CPE inhibition is inactive: -0.25%.

Take `Nc1cccc([As](=O)(O)c2ccccc2)c1`: the CPE inhibition is inactive: 0.78%.

With `O=P1(Nc2ccc(Br)cn2)COc2ccccc2OC1`, the CPE inhibition is inactive: 0.27%.

On to `O=[As](O)(c1cccs1)c1cccs1`, for which the CPE inhibition is inactive: 0.72%.

For `Cc1ccc(OCC(=O)OC2CN3CCC2CC3)cc1` (configuration not stated), the CPE inhibition was inactive: 0.41%.

For the compound `CCOP(=O)(NC(=NC(C)c1ccccc1)NC(C)c1ccccc1)OCC` (configuration not stated), the CPE inhibition was inactive: -1.35%.

Take `O=P1(Nc2ccccn2)COc2ccccc2OC1`: the CPE inhibition was inactive: 0%.

Consider `CCC1=CC2Cc3nc4ccc(Cl)cc4c(N)c3C(C1)C2` (configuration not stated), for which the CPE inhibition is inactive: 13.6%.

For the compound `CN(CCCl)Cc1cc(Cl)c(NC2=NCCN2)c(Cl)c1`, the CPE inhibition is inactive: -0.84%.

On to `CCOP(=O)(Nc1ccc(C)cn1)OCC`, for which the CPE inhibition was inactive: 0.06%.

With `CC(C)(C)C(=O)NC(Sc1ncccn1)C(Cl)(Cl)Cl` (configuration not stated), the CPE inhibition is inactive: -0.04%.

In the case of `Clc1n[nH]nc1-c1nn[nH][15n]1`, the CPE inhibition was inactive: 0.46%.

With `CC(C)/C=N\N=C(\N)N[N+](=O)[O-]`, the CPE inhibition is inactive: 0.5%.

Consider `CN(C(=O)Cc1ccc(Cl)c(Cl)c1)[C@@H]1CCCC[C@H]1N1CCCC1`, for which the CPE inhibition was inactive: 1.85%.

Turning to `CC1(CBr)Cn2c(nc3ccccc3c2=O)S1` (configuration not stated), the CPE inhibition is inactive: -0.26%.

Turning to `O=[As](O)(c1ccccc1Br)c1ccccc1Br`, the CPE inhibition was inactive: 0.17%.

Turning to `O=C(OC1CN2CCC1CC2)c1ccc(Cl)cc1` (configuration not stated), the CPE inhibition was inactive: 0.58%.

On to `CS(=O)(=O)c1ccc(Cl)c(NC(=O)COC(=O)C(O)(c2ccccc2)c2ccccc2)c1`, for which the CPE inhibition was inactive: -0.28%.

For the compound `COc1cc(C(=O)NCC2(N3CCOCC3)CCCCC2)cc(Cl)c1OC(C)C`, the CPE inhibition is inactive: -1.46%.

Consider `O=[As](O)(O)c1cccnc1`, for which the CPE inhibition is inactive: 0.14%.

For `O=[As](O)(c1cccc(O)c1)c1cccc(O)c1`, the CPE inhibition is inactive: 0.27%.

In the case of `Cc1cccc(OCC(=O)OC2CN3CCC2CC3)c1` (configuration not stated), the CPE inhibition is inactive: 0.31%.

Turning to `Nc1cccc2c([As](=O)(O)O)cccc12`, the CPE inhibition is inactive: -0.2%.

On to `Cc1ccc(NCCc2c([N+](=O)[O-])cc([N+](=O)[O-])cc2[N+](=O)[O-])cc1`, for which the CPE inhibition was inactive: -1.21%.

Regarding `CCCOP(=S)(Nc1nc(N)cc(=O)[nH]1)OCCC`, the CPE inhibition was inactive: 1.36%.

With `CCOP(=O)(Nc1cccc2ccccc12)OCC`, the CPE inhibition is inactive: 0%.

For the compound `COc1cc(C2NCCC3(OCCO3)C2(C)C)cc(OC)c1OC` (configuration not stated), the CPE inhibition was inactive: -1.15%.

As to `O=P(Nc1nccs1)(c1ccccc1)c1nc2ccccc2s1` (configuration not stated), the CPE inhibition is inactive: -0.19%.

With `O=P(Nc1nccs1)(Oc1ccccc1)Oc1ccccc1`, the CPE inhibition was inactive: 0.95%.

`CCOP1(=S)c2c(C)nn(CCC#N)c2N=C(c2ccccc2F)N1C` (configuration not stated): the CPE inhibition is inactive: -0.48%.

For `CS(=O)(=O)c1cc([N+](=O)[O-])c2no[n+]([O-])c2c1`, the CPE inhibition was inactive: 0.82%.

On to `Nc1ccccc1[As](=O)(O)c1ccccc1`, for which the CPE inhibition is inactive: 0.35%.

`O=C(O)COc1ccc([As](=O)(O)O)cc1[N+](=O)[O-]`: the CPE inhibition was inactive: 0.13%.

For the compound `NC(=O)Nc1ccc([As](=O)(O)O)cc1`, the CPE inhibition was inactive: 0.55%.

For `CN(C(=O)Cc1ccccc1)[C@@H]1CC[C@]2(CCCO2)C[C@H]1N1CCCC1`, the CPE inhibition is inactive: 0.31%.

As for `CCOP1(=S)c2c(C)nn(CCC#N)c2N=C(c2ccc(F)cc2)N1C` (configuration not stated), the CPE inhibition was inactive: -0.8%.

Take `CN(C(=O)Cc1ccc(Cl)c(Cl)c1)[C@H]1CC[C@@]2(CCCO2)C[C@@H]1N1CCCC1`: the CPE inhibition is inactive: 0.75%.

For `O=[N+]([O-])c1ccc2c(c1)nnn2O`, the CPE inhibition is inactive: 0%.

As to `C[As](=O)(O)c1cccc(C(=O)O)c1`, the CPE inhibition is inactive: -0.2%.

For `O=[As](O)(c1ccc(O)cc1)c1ccccc1O`, the CPE inhibition is inactive: 0.43%.

For the compound `Cc1ccc(OP(=O)(Nc2ccc([N+](=O)[O-])cn2)Oc2ccc(C)cc2)cc1`, the CPE inhibition is inactive: -0.39%.

Turning to `Cc1ccc2nc3c(c(C)c2c1)CC(C(Cl)Cl)S3` (configuration not stated), the CPE inhibition was inactive: -0.92%.

Take `ClCCSc1nnc(-c2cccnc2)o1`: the CPE inhibition is inactive: 0.1%.

For `CC(C)c1ccc(OP(=O)(Nc2ccccn2)Oc2ccccc2F)cc1` (configuration not stated), the CPE inhibition was inactive: 0.03%.

`O=[N+]([O-])c1cc([N+](=O)[O-])c(-c2ccn[nH]2)s1`: the CPE inhibition was inactive: -0.47%.

For `CCN(CC)C(=S)SC(NC=O)C(Cl)(Cl)Cl` (configuration not stated), the CPE inhibition is inactive: 0%.

In the case of `CC(C)NC(=O)NP(=O)(Oc1ccccc1)Oc1ccccc1`, the CPE inhibition was inactive: 0.83%.

As for `Cc1c2c(nc3ccccc13)SC(C(Cl)Cl)C2` (configuration not stated), the CPE inhibition was inactive: -0.86%.

As for `Cc1cc(=O)[nH]c(N[N+](=O)[O-])n1`, the CPE inhibition is inactive: 0.29%.

For `O=C(OC1CN2CCC1CC2)C12CC3CC(CC(C3)C1)C2` (configuration not stated), the CPE inhibition was inactive: -0.94%.

For the compound `COc1cc(I)ccc1[As](=O)(O)O`, the CPE inhibition was inactive: -0.36%.

For the compound `COc1ccc2nc(NP(=O)(c3ccccc3)c3ccccc3)sc2c1`, the CPE inhibition was inactive: -0.85%.

Regarding `COc1ccc(N/C(=N/P(=O)(N2CCOCC2)N2CCOCC2)N2CCOCC2)cc1`, the CPE inhibition was inactive: 0.06%.

Consider `COP1(=S)c2c(C)nn(CCC#N)c2N=C(c2ccc(F)cc2)N1C` (configuration not stated), for which the CPE inhibition was inactive: -0.65%.

Regarding `O=C(Nc1ccncc1[N+](=O)[O-])c1ccc([N+](=O)[O-])cc1[N+](=O)[O-]`, the CPE inhibition is inactive: -0.37%.

As to `O=C(OC1CN2CCC1CC2)c1cccc([N+](=O)[O-])c1` (configuration not stated), the CPE inhibition is inactive: -0.31%.

With `CCOC(=O)c1ccc(NC(=O)C(C)(CCl)SC)cc1` (configuration not stated), the CPE inhibition was inactive: 0.26%.

Take `CCC(C)N(CC(C)C)C(=S)SC(NC(C)=O)C(Cl)(Cl)Cl` (configuration not stated): the CPE inhibition was inactive: -0.2%.

Take `CCOC(=O)Nc1ccc([As](=O)(O)O)c(O)c1`: the CPE inhibition is inactive: -0.07%.

For `Cc1cc(SC(NC(=O)c2ccccc2)C(Cl)(Cl)Cl)nc(C(C)C)n1` (configuration not stated), the CPE inhibition is inactive: -0.68%.

Consider `CCCCOc1ccc(C(=O)NCC2(N3CCCCC3)CCCCC2)cc1OC`, for which the CPE inhibition was inactive: -0.14%.

As to `CCOC(=O)Nc1cccc([As](=O)(O)O)c1`, the CPE inhibition was inactive: -0.1%.

Turning to `O=P(Nc1ccccn1)(c1cccc2ccccc12)c1cccc2ccccc12`, the CPE inhibition is inactive: -0.36%.

As for `Cc1cc(SC(NC=O)C(Cl)(Cl)Cl)ncn1` (configuration not stated), the CPE inhibition was inactive: -0.09%.

Take `O=[N+]([O-])c1ccc(Nc2ccc(Oc3ccc([N+](=O)[O-])cc3[N+](=O)[O-])cc2)c([N+](=O)[O-])c1`: the CPE inhibition is inactive: 0.13%.

With `O=C(Nc1cc([As](=O)(O)O)ccc1O)c1ccccc1`, the CPE inhibition was inactive: 0.79%.

Take `O=[N+]([O-])c1ncn(CCn2ncnc2[N+](=O)[O-])n1`: the CPE inhibition was inactive: -0.31%.

On to `CC(C)(C)C(=O)NC(Sc1ccncn1)C(Cl)(Cl)Cl` (configuration not stated), for which the CPE inhibition was inactive: -0.06%.

With `O=C(O)CNc1ccc([As](=O)(O)O)cc1`, the CPE inhibition was inactive: 0.79%.

Regarding `O=[N+]([O-])c1cccc(NC2=NCC(CBr)S2)c1` (configuration not stated), the CPE inhibition was inactive: 0%.

Turning to `COc1ccc(C2=NCC(CBr)S2)cc1` (configuration not stated), the CPE inhibition was inactive: -0.51%.

As for `O=[N+]([O-])c1cc([N+](=O)[O-])c(CCNc2ccccc2)c([N+](=O)[O-])c1`, the CPE inhibition is inactive: 1.55%.

`Cc1ccc(NP(=O)(Oc2ccccc2)Oc2ccccc2)nc1`: the CPE inhibition was inactive: -0.99%.

With `O=[N+]([O-])c1cccc2n[nH]nc12`, the CPE inhibition was inactive: -0.42%.

For `CC(=O)N1C2C3N(C(C)=O)C1C1N(C(C)=O)C(C(N1C(C)=O)N3C(C)=O)N2C(C)=O`, the CPE inhibition was inactive: 0.41%.

`CCN(/C(=N/P(=O)(N1CCOCC1)N1CCOCC1)N1CCOCC1)c1ccc(OC)cc1`: the CPE inhibition is inactive: -0.64%.

With `C[N+]1=C2C=CC=CC=C2SC12C([N+](=O)[O-])=CC([N+](=O)[O-])=C[C-]2[N+](=O)[O-]` (configuration not stated), the CPE inhibition was inactive: 0.45%.

In the case of `Nc1ccc([As](=O)(O)c2ccc(N)cc2)cc1`, the CPE inhibition is inactive: -0.28%.

Consider `CC1CCN(C(=O)Oc2c(Cl)cc(Cl)c3cccnc23)CC1`, for which the CPE inhibition was inactive: -0.58%.

For the compound `CN(C)C(=O)OCCc1n(C)cc[n+]1C`, the CPE inhibition is inactive: 0.52%.

`CC(C)=N/N=C(\N)N[N+](=O)[O-]`: the CPE inhibition is inactive: 0.83%.

Turning to `Cc1ccc(N/C(=N/P(=O)(N2CCOCC2)N2CCOCC2)N2CCOCC2)cc1`, the CPE inhibition is inactive: 0.28%.

Turning to `NC(=O)c1cc([N+](=O)[O-])cc([N+](=O)[O-])c1N`, the CPE inhibition was inactive: 0.78%.

As to `Clc1ccc(Cl)c(NC2=NCC(CBr)S2)c1` (configuration not stated), the CPE inhibition was inactive: -0.64%.

In the case of `CN1CCCC(OC(=O)C(c2ccccc2)c2ccccc2)C1` (configuration not stated), the CPE inhibition is inactive: -0.36%.

Take `Cc1ccc(OP(=O)(Nc2nccs2)Oc2ccc(C)cc2)cc1`: the CPE inhibition is inactive: 0.45%.

`COc1ccccc1OP(=O)(Nc1ccc(C)cn1)Oc1ccccc1OC`: the CPE inhibition was inactive: 0.06%.

In the case of `Cc1c2non([O-])c-2c(C)[n+](=O)[n+]1[O-]`, the CPE inhibition is inactive: -0.29%.

As for `O=C(NC(Sc1ccncn1)C(Cl)(Cl)Cl)c1ccccc1` (configuration not stated), the CPE inhibition is inactive: -0.81%.

With `Oc1ccccc1CNc1ccccn1`, the CPE inhibition is inactive: -0.13%.

Consider `CC(C)CC(=O)NC(Sc1ccc(Cl)cc1)C(Cl)(Cl)Cl` (configuration not stated), for which the CPE inhibition was inactive: -0.53%.

As to `Nc1cc(N)c2nonc2c1[N+](=O)[O-]`, the CPE inhibition is inactive: -0.07%.

In the case of `O=P(Nc1nc2ccc(Cl)cc2s1)(c1ccccc1)c1ccccc1`, the CPE inhibition was inactive: 1.3%.

As to `O=C(O)c1ccccc1[As](=O)(O)O`, the CPE inhibition was inactive: 0.11%.

For the compound `CC(=O)Nc1ccc([As](=O)(O)O)cc1`, the CPE inhibition was inactive: 1.18%.

Take `Cc1ccc(NP(=O)(Oc2ccccc2F)Oc2ccccc2F)nc1`: the CPE inhibition was inactive: 0.13%.

Take `CN(C(=O)Cc1ccc(Cl)c(Cl)c1)[C@H]1CCCC[C@@H]1N1CCCC1`: the CPE inhibition was inactive: 0.75%.

The values above are taken from PubChem BioAssay AID1621 (Southern Research Specialized Biocontainment Screening …, 2009).
